Experimental data from patent US9987200B2, “Activated micro-bubble based root canal disinfection” (SyACT, LLP, priority 2014, dated 2018).

Test: Diffusion of photosensitizing compound into dentin, tooth cross-sections (FIG. 2)

SMILES: CN(C)c1ccc2nc3ccc(=[N+](C)C)cc-3sc2c1 [methylene blue]
- Penetration into the dentin (MB 100 micro-molar dissolved in the polyethylene glycol, ethanol and water mixture): substantially better
- Penetration into the dentin (MB 100 micro-molar mixed only in water): very little penetration
- Penetration depth into the dentin (MB in the PEG/ethanol/water carrier solution): up to 2 mm
